A mixed list of measured activities; the numbers were collected in NIAID ChemDB.

Shared fields: tests in culture; species: HIV-1; read by: fluorescence; read-out: EC50

Neighbouring rows are from separate reports.

| smiles | strain or isolate | conditions | cells | result |
|---|---|---|---|---|
| CN(C(=O)[C@H](Cc1ccccc1)NC(=O)CN1C(=O)NC2(CCCc3ccccc32)C1=O)c1ccccc1 | NL4-3 | - | - | >20 µM |
| CC(C)OC(=O)[C@@H](C)CNP(=O)(CO[C@H](C)Cn1cnc2c(N)ncnc21)N[C@H](C)C(=O)OC(C)C | - | 10% human serum | MT4-GFP | 257.9 µM |
| O=C(OCc1ccccc1)N1OCCC1n1cc(COCc2ccccc2)c(=O)[nH]c1=O | NL4-3 | - | CEM-GFP | 15.7 µM |
| CC1(C)C(=O)c2c(O)c(=O)c(C(=O)NCc3ccc(F)cc3F)cn2CC1NCCCP(=O)(O)O | NL4-3 | - | MT4-GFP | >1.05 µM |
| CN(C(=O)[C@H](Cc1ccccc1)NC(=O)Cc1cccc2ccccc12)c1ccccc1 | NL4-3 | - | - | 1.1 µM |
| CN[C@@H](C)C(=O)N[C@H]1CCSC2CC(C)(C)[C@@H](C(=O)N[C@H]3c4ccccc4C[C@H]3OCCCCCCCCO[C@@H]3Cc4ccccc4[C@@H]3NC(=O)[C@H]3N4C(=O)[C@@H](NC(=O)[C@H](C)NC)CCSC4CC3(C)C)N2C1=O | - | - | Jurkat cells | 0.0116 µM |
| Cc1cc(Cl)cc(/C=N/NC(=O)c2ccc(O)cc2O)c1O | 92US657 | - | TZM-bl | 2.3 µM |
| O=C(OCc1ccccc1)N1OCCC1n1cc(COCc2cn(CCO)nn2)c(=O)[nH]c1=O | NL4-3 | - | CEM-GFP | 103 µM |
| Cc1cn([C@H]2C[C@H](N=[N+]=[N-])[C@@H](CO)O2)c(=O)[nH]c1=O | BaL | - | C8166 | 0.17 µM |
| N[C@H](C(=O)Nc1cncc(F)c1CC[C@@H]1CN[C@H](COC(=O)NCC(F)(F)F)CO1)[C@@H](c1ccc(Cl)cc1)c1cc(F)cc(F)c1 | IIIB | - | MT4-GFP | 0.049 µM |
| CN[C@@H](C)C(=O)N[C@H]1CCSC2CC(C)(C)[C@@H](C(=O)N[C@@H]3c4ccccc4C[C@@H]3OCCCCCCCCO[C@H]3Cc4ccccc4[C@H]3NC(=O)[C@@H]3N4C(=O)[C@H](NC(=O)[C@H](C)NC)CCSC4CC3(C)C)N2C1=O | - | - | Jurkat cells | 0.0116 µM |
| Cc1cn([C@H]2C[C@H](N=[N+]=[N-])[C@@H](CO)O2)c(=O)[nH]c1=O | IIIB | - | H9 | 0.01903 µM |
| CCCCCCCOC(=O)[C@H](C)NP(=O)(CO[C@H](C)Cn1cnc2c(N)ncnc21)NC[C@H](C)C(=O)OC(C)C | - | 10% human serum | MT4-GFP | 6.5 µM |
| O=C(N/N=C/c1c(O)ccc2ccccc12)c1ccc(O)cc1O | 92US657 | - | TZM-bl | 7.3 µM |
| CN[C@H](C)C(=S)N[C@H]1CCSC2CC(C)(C)[C@@H](C(=O)N[C@@H](COCc3cn(COC[C@@H](NC(=O)[C@H]4N5C(=O)[C@@H](NC(=S)[C@@H](C)NC)CCSC5CC4(C)C)c4ccccc4)nn3)c3ccccc3)N2C1=O | - | - | Jurkat cells | 0.2433 µM |
| CC(C)COC(=O)[C@@H](C)NP(=O)(CO[C@H](C)Cn1cnc2c(N)ncnc21)NC[C@H](C)C(=O)OC(C)C | - | 10% human serum | MT4-GFP | 15.7 µM |
| C=C(C)C12OCOC1C1C3OC3(CO)C(O)C3(O)C(=O)C(C)=CC3C1(O/C=C/C=C/CCC)C(C)C2OC(=O)c1ccccc1 | - | - | PBMC | 0.03 µM |
| COc1cc(C)c(/C=C/C2NCCc3cc(OCc4ccccc4)c(OC)cc32)cc1OC | NL4-3 | - | MT-2 | 0.036 µM |

For reference, 2 entries again:

| smiles | strain or isolate | conditions | cells | result |
|---|---|---|---|---|
| O=C(OCc1ccccc1)N1OCCC1n1cc(COCc2cn(CCO)nn2)c(=O)[nH]c1=O | NL4-3 | - | CEM-GFP | 103 µM |
| CC(C)OC(=O)[C@@H](C)CNP(=O)(CO[C@H](C)Cn1cnc2c(N)ncnc21)N[C@H](C)C(=O)OC(C)C | - | 10% human serum | MT4-GFP | 257.9 µM |

An empty or dashed field is not shown. ECn: concentration that inhibits the pathogen or its effect by n%.